Taken from: PubChem BioAssay AID1224833 (University of Georgia, 2016)

- Assay: 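Human genes whose knock-down alters rotavirus replication in monkey cells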 (primary screen)
- Cell system: monkey MA104 kidney cells
- Reagents: siRNA pool against human genes, 50 nM
- Duration: 48 h knock-down before infection; read 24 h after infection
- Challenge: infection with rotavirus strain RV3 two days after transfection; infectious dose for this stage not given
- Measured: 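Rotavirus antigen per well by fluorescent immunoassay, normalised to non-targeting control wells on each plate and given as a standard z-score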
- Reading the numbers: z-score vs non-targeting control: higher = more rotavirus replication than with non-targeting control
- Hit rule: In these data the active calls have z-score vs non-targeting control at about -1 or lower, or at about 1 or higher
- Calls: active = z-score beyond 1 either way; inactive = z-score within 1 of zero
The whole screen tested about 12,000 reagents; this is a part drawn at random. About 5,600 of them (46%) were called active. 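Active calls cover z-scores past 1 in both directions, so they include lowered as well as raised rotavirus replication.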 A number with no mark means an inactive call.

The opening 6 records, to show the layout:
Target gene	z-score vs non-targeting control
IGFBP6	1.71 (active)
TBC1D22A	-2.22 (active)
CPSF4	-0.952
RTKN	0.853
NFKBIZ	-0.344
OR10W1	-2.09 (active)

Results, repeating the preview:
Target gene	z-score vs non-targeting control
IGFBP6	1.71 (active)
TBC1D22A	-2.22 (active)
CPSF4	-0.952
RTKN	0.853
NFKBIZ	-0.344
OR10W1	-2.09 (active)
UGT1A4	-1.29 (active)
SLC38A5	-0.2
MIEF1	1.81 (active)
FUOM	-0.991
ZNF410	-0.0014
H2AC1	-0.773
SCGB1D4	0.155
TMC6	0.556
CARS1	2.3 (active)
FRA10AC1	0.884
UQCRH	-1.08 (active)
MTCH1	0.857
NAV3	-0.404
NDUFA7	-2.3 (active)
PCDHGA5	1.36 (active)
CD55	-1.05 (active)
TSR2	-0.663
KRT20	0.296
SPMIP2	0.713
LUZP6	-0.1
INSL4	0.0492
PDS5B	0.603
RAB11FIP2	-0.535
CKAP5	-0.215
EWSR1	-0.57
SPATA9	-2.69 (active)
ISCA1	-2.44 (active)
GSDMC	-1.98 (active)
SLC52A3	-1.88 (active)
MEF2D	-1.24 (active)
RHOD	-1.42 (active)
MBD2	-0.791
GBA1	1.07 (active)
PSD4	-1.35 (active)
RNF213	-1.35 (active)
CDPF1	-1.49 (active)
AKT1S1	-0.423
RFC4	-0.0646
GNB1L	-0.21
TMEM40	1.56 (active)
C14orf39	0.224
POLD1	-1.15 (active)
SLAMF7	-1.55 (active)
RGS6	2.78 (active)
ANGPTL7	0.711
ESD	1.34 (active)
BRCC3	-0.589
ZNF580	-1.34 (active)
SIGLEC15	-1.81 (active)
RAB8B	0.757
BCHE	-0.677
METTL22	0.473
AZIN1	-1.39 (active)
ANKRD40	2.26 (active)
SDC1	0.82
MGP	-1.49 (active)
IL5	-3.25 (active)
GJA3	1.49 (active)
UBAC2	0.484
SLC30A6	0.835
CFC1	0.239
AOAH	-0.904
GHRHR	-1.13 (active)
RBM18	-0.468
MEIS3	-1.3 (active)
LRRN4	-0.674
CAB39L	0.402
EEF2	-2.04 (active)
CRLF1	-1.34 (active)
EMC8	-0.979
OR9G1	-0.391
ZNF180	0.427
TUBA1A	1.14 (active)
TMEM43	-1.18 (active)
SUOX	-2.2 (active)
AADAC	1.45 (active)
NFIA	1.35 (active)
ZIC4	0.191
JRK	0.125
RABEPK	-3.08 (active)
NDUFAF1	0.564
VPS16	1.5 (active)
PSMG2	0.953
XPNPEP2	1.84 (active)
OSBPL6	-0.0008
SLIRP	-1.01 (active)
FAM20B	-1.37 (active)
ZNF90	-1.08 (active)
SLC2A1	1.92 (active)
SIDT2	0.502
TCF7L2	-1.39 (active)
CIB3	-0.46
TMEM168	1.15 (active)
EAPP	0.637
EI24	0.885
ZNF718	-0.862
OR1J2	-0.706
ACSS1	-1.66 (active)
RXRA	0.88
SEPTIN6	2.27 (active)
FAF2	0.461
THUMPD2	-1.37 (active)
TNFRSF13B	-3.27 (active)
VAPB	-0.589
